The source of these data is paper PMC7993394 (Journal of Enzyme Inhibition and Medicinal Chemistry, 2021).

In the experiment the target is BpHldC (Burkholderia pseudomallei, UniProt Q63XZ4). Nature of the experiment: malachite green kinetics, secondary plot of slope vs inhibitor. To be noted: read-out: βG1P / Ki; mixed type versus βG1P (varied) at 0.5 mM ATP; Tris pH 7.5, 10 mM MgCl2, room temperature.

For `CCOC(=O)c1sc(NC(=O)CSc2nnc(-c3ccc(Cl)cc3)o2)c(C#N)c1C` [compound 7933420, ethyl 5-[({[5–(4-chlorophenyl)-1,3,4-oxadiazol-2-yl]thio}acetyl)amino]-4-cyano-3-methyl-2-thiophene carboxylate], the Ki worked out at 6.02 µM. With `CCOC(=O)c1sc(NC(=O)CSc2nnc(-c3ccccc3OCC)o2)c(C#N)c1C` [compound 7991890, ethyl 4-cyano-5-[({[5–(2-ethoxyphenyl)-1,3,4-oxadiazol-2-yl]thio}acetyl)amino]-3-methyl-2-thiophenecarboxylate], the Ki was 39.6 µM. On to `CCOC(=O)c1sc(NC(=O)CSc2nnc(Cc3ccccc3)o2)c(C#N)c1C` [compound 7929959, ethyl 5-({[(5-benzyl-1,3,4-oxadiazol-2-yl)thio]acetyl}amino)-4-cyano-3-methyl-2-thiophenecarboxylate], for which the Ki was determined as 0.15 µM.
